Zika virus NS2B-NS3: effect of single substitutions on growth in cell culture

Source: Ni et al. 2025 (doi:10.1038/s41467-025-63602-z), supplementary data.

Protein: NS2B and the protease part of NS3 of Zika virus strain MR766. Positions count along the chain below; NS2B spans 2-131 and NS3 starts at 132.
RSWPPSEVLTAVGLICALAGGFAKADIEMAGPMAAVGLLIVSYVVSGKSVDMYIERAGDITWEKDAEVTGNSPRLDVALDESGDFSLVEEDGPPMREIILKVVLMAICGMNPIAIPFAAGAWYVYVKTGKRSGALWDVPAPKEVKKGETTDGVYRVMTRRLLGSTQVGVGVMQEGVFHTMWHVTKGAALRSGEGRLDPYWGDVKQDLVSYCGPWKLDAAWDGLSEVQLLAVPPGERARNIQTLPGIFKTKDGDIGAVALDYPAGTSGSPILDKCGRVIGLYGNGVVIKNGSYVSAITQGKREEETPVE

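Libraries of single mutants were passaged as virus pools on Huh-7.5 cells. Sequencing of three replicate libraries (two for positions 207-308) was averaged into one effect per change. The study looked for pockets that tolerate few changes, as a guide for inhibitor design.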

The number is log2 of the effect relative to wild type; negative values mean reduced growth, higher values better tolerance.
Each entry names the wild-type residue, its position and the residue put in its place.
This list holds changes to methionine only.
The region was split into three libraries (1-103, 104-206, 207-308).
Position 1 still belongs to NS2A. In the paper, -1 or higher counts as tolerated.
Six mutants with high scores were retested singly and none clearly outgrew wild type, so positive values are not proof of better growth.

L280M gave -5.12. Y281M read -5.15. For G282M the result was -3.61. N283M gave -5.43. G284M gave -5.05.

With V285M the assay gave -4.33. With V286M the assay gave -4.50. I287M gave 0.38. For K288M the result was -5.26. For N289M the result was -5.08.

G290M read -4.97. S291M gave -1.94. Y292M gave -4.24. V293M gave -4.71. S294M read -4.96.

A295M gave -4.59. For I296M the result was -4.98. T297M read -4.50. Q298M gave -4.94. With G299M the assay gave -5.08.

K300M read -6.14. R301M read -6.51. For E302M the result was 1.28. E303M gave -1.08. With E304M the assay gave 0.33.

T305M read 0.74. For P306M the result was -0.64. V307M read -0.17. With E308M the assay gave 0.22.

3 of these entries, quoted again:

E304M: 0.33.
G299M: -5.08.
K300M: -6.14.